Biological target: NLRP3 inflammasome (Homo sapiens (Human), UniProt Q96P20)
Assay: Evaluation of NLRP3 inflammasome inhibitory activity (inhibition of IL-1β production in LPS/Nigericin-stimulated THP1-Null cells)
Format: cell-based
Conditions: IL-1β production in THP1-Null cells, PMA, LPS 1 μg/mL, Nigericin 7.5 μmol/L, AlphaLISA
Procedure: The NLRP3 inflammasome inhibitory activity of test compounds were evaluated on the basis of the inhibitory activity of the IL-1β production in THP1-Null cells (Product Number: thp-null, InvivoGen). […] The supernatant of the culture was removed, and thereto was added media for assay (25 μL/well) containing 1 μg/mL Lipopolysaccharides (Product Number: L2654, Sigma-Aldrich (registered trademark)). […] The supernatant of the culture was removed. […] A solution containing a test compound (20 μL/well) was added to test compound-setting wells. […] The supernatant of the culture was cryonically stored (set at −20° C.) until measurement of IL-1β.
The amount of IL-1β in the culture supernatant was quantitated with AlphaLISA(registered trademark) Human IL-1β Detection Kit (Product Number: AL220C, Perkin Elmer). Fluorescence intensity was measured with a microplate reader EnSpier (Model number: 2300-00J, Perkin Elmer) or EnSight(Model number: HH34000000, Perkin Elmer) according to procedure manuals attached thereto. Inhibition rates of the test compound-setting wells were calculated on the basis of 100% for the blank-setting wells and 0% for the control-setting wells.

By UniProt entry, the sequences of proteins in these tests, tags left out.
UniProt Q96P20, whole entry: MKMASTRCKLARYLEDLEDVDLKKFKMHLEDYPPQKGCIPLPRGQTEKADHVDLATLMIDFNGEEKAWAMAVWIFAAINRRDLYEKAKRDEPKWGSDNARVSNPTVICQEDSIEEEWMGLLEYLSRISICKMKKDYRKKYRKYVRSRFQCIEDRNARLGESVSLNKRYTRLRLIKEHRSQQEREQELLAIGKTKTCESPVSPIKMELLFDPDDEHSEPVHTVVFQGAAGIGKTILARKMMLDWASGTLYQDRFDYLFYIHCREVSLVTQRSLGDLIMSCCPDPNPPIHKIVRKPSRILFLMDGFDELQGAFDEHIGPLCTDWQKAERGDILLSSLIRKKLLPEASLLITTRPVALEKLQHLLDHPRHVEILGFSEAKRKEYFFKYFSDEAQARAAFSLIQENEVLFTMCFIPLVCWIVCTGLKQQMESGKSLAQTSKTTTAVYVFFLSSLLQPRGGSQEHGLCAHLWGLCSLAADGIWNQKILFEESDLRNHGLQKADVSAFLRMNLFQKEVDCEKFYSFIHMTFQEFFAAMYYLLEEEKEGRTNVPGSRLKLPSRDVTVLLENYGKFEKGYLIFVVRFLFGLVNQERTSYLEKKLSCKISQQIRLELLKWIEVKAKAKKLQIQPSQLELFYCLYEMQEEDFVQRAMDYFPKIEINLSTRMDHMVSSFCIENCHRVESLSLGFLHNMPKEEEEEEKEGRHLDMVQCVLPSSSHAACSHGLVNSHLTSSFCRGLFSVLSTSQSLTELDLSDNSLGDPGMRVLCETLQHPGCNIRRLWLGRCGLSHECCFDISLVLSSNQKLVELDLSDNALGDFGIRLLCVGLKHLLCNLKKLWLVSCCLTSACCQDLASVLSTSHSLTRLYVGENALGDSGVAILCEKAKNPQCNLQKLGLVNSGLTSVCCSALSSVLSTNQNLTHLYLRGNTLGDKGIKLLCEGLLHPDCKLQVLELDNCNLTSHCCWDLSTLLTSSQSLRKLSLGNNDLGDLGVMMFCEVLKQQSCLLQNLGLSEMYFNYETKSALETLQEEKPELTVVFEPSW

SMILES | IC50 [nM]
Cc1cc(Br)cc(C)c1-n1cc2c(=O)[nH]c(N3CCOCC3)nc2n1 [Example 334] | 8.2
Cc1cc(Br)cc(C)c1-n1cc2c(=O)[nH]c(N3CCOCC3)nc2n1 [Example 335] | 9.8
Cc1cc(Br)cc(C)c1-n1cc2c(=O)[nH]c(N3CCOCC3)nc2n1 [Example 94, 2-(4-bromo-2,6-dimethylphenyl)-6-morpholino-2,5-dihydro-4H-pyrazolo[3,4-d]pyrimidin-4-one] | 4.3

From patent publication US20240287079A1, “6-AMINOPYRAZOLOPYRIMIDINE COMPOUND AND PHARMACEUTICAL USE THEREOF” (Japan Tobacco Inc., priority 2021, published 2024)
